Anti-infective test results gathered from many reports (values: NIAID ChemDB through PubChem).

All rows: whole-cell or culture tests

Lines come from different laboratories, so protocols vary. A number after MIC or MFC names an inhibition level or a share of isolates. Blank or dashed fields: not listed here. Percent inhibition refers to the dose given; in toxicity tests it is the harm to the cells.

| smiles | read-out | agent | method | conditions | strain or isolate | dose | value |
|---|---|---|---|---|---|---|---|
| Cc1ccn2c(C(=O)NCc3ccc(N4CCN(c5ccc(OC(F)(F)F)cc5)[C@H](C)C4)c(F)c3)c(C)nc2c1 | inhibition | Mycobacterium avium | fluorescence |  |  | 0.07 µM | 85% |
| O=C(NNC(=O)c1ccncc1)Nc1ccc(F)c(C(F)(F)F)c1 | MIC100 | Mycobacterium kansasii | broth dilution | 14 d | My 235/80 |  | 125 µM |
| CCCCCCC(=O)O[C@H]1[C@H](C)[C@@H](O[C@@H]2O[C@H](C)C[C@H](N(C)C)[C@H]2O)C(C)(O)C[C@@H](C)/C(=N\OCCCOc2ccccc2)[C@H](C)[C@@H](O)[C@](C)(O)[C@@H](CC)OC(=O)[C@@H]1C | MIC | Mycobacterium avium complex |  |  | 20039 (clarithromycin-susceptible) |  | 3.13 µg/mL |
| CCCCCCCCc1ccc(NC(=O)NNC(=O)c2ccncc2)cc1 | MIC100 | Mycobacterium kansasii | broth dilution | 14 d | My 6509/96 |  | 250 µM |
| CC[C@H]1OC(=O)[C@H](C)[C@@H](O[C@H]2C[C@@](C)(OC)[C@@H](OC(C)=O)[C@H](C)O2)[C@H](C)[C@@H](O[C@@H]2O[C@H](C)C[C@H](N(C)C)[C@H]2OC(=O)NN(C)C)C(C)(O)C[C@@H](C)/C(=N\OCCCC2CCCCC2)[C@H](C)[C@@H](O)[C@]1(C)O | MIC | Mycobacterium avium complex |  |  | 20092 (clarithromycin-resistant) |  | 3.13 µg/mL |
| O=C(NNC(=O)c1ccncc1)Nc1ccc(Cl)c(Cl)c1 | MIC100 | Mycobacterium kansasii | broth dilution | 21 d | My 235/80 |  | 125 µM |
| CC[C@H]1OC(=O)[C@H](C)[C@@H](OC(C)=O)[C@H](C)[C@@H](O[C@@H]2O[C@H](C)C[C@H](N(C)C)[C@H]2O)C(C)(O)C[C@@H](C)/C(=N\OCCCOc2ccccc2)[C@H](C)[C@@H](O)[C@]1(C)O | MIC | Mycobacterium avium complex |  |  | 20092 (clarithromycin-resistant) |  | >50 µg/mL |
| CC1(C)N=C(N)N=C(N)N1OCCCOc1cc(Cl)c(Cl)cc1Cl | MIC | Mycobacterium avium complex |  |  | 3028 |  | 2 µg/mL |
| CCc1nc2ccc(Cl)cn2c1C(=O)NCc1ccc(C2=C[C@H](C)N(c3ccc(OC(F)(F)F)cc3)CC2)c(F)c1.Cl | inhibition | Mycobacterium avium | fluorescence |  |  | 0.007 µM | 85% |
| CC[C@H]1OC(=O)[C@H](C)[C@@H](O[C@H]2C[C@@](C)(OC)[C@@H](OC(C)=O)[C@H](C)O2)[C@H](C)[C@@H](O[C@@H]2O[C@H](C)C[C@H](N(C)C)[C@H]2O)C(C)(O)C[C@@H](C)/C(=N\OCCCC2CCCCC2)[C@H](C)[C@@H](O)[C@]1(C)O | MIC | Mycobacterium avium complex |  |  | 20039 (clarithromycin-susceptible) |  | 1.56 µg/mL |
| COc1ccn2nc(C)c(C(=O)NCc3ccc(N4C[C@H](C)N(c5ccc(OC(F)(F)F)cc5)C[C@H]4C)c(F)c3)c2c1.Cl | inhibition | Mycobacterium avium | fluorescence |  |  | 0.031 µM | 85% |
| CCCCCCCCCCNNC(=O)O[C@H]1[C@H](O[C@@H]2[C@@H](C)[C@H](O[C@H]3C[C@@](C)(OC)[C@@H](OC(C)=O)[C@H](C)O3)[C@@H](C)C(=O)O[C@H](CC)[C@@](C)(O)[C@H](O)[C@@H](C)/C(=N/OCCCC3CCCCC3)[C@H](C)CC2(C)O)O[C@H](C)C[C@@H]1N(C)C | MIC | Mycobacterium avium complex |  |  | 20092 (clarithromycin-resistant) |  | >50 µg/mL |
| CCc1nc2cc(F)ccn2c1C(=O)NCc1ccc(N2CC=C(c3ccc(OC(F)(F)F)cc3)CC2)c(F)c1.Cl | inhibition | Mycobacterium avium | fluorescence |  |  | 0.0079 µM | 85% |
| CC[C@H]1OC(=O)[C@H](C)[C@@H](OC2C[C@@](C)(OC)[C@@H](O)[C@H](C)O2)[C@H](C)[C@@H](O[C@@H]2O[C@H](C)C[C@H](N(C)C)[C@H]2O)C(C)(O)C[C@@H](C)/C(=N\OCCOc2ccccc2)[C@H](C)[C@@H](O)[C@]1(C)O | MIC | Mycobacterium avium complex |  |  | 20039 (clarithromycin-susceptible) |  | 1.56 µg/mL |
| Cc1ccn2c(C(=O)NCc3ccc(C4CCN(c5ccc(OC(F)(F)F)cn5)CC4)c(F)c3)c(C)nc2c1 | inhibition | Mycobacterium avium | fluorescence |  |  | 0.17 µM | 85% |
| CO[C@H]1/C=C/O[C@@]2(C)Oc3c(C)c(O)c4c(O)c(c(/C=N/N5CCN(C6CCCC6)CC5)c(O)c4c3C2=O)NC(=O)/C(C)=C\C=C\[C@H](C)[C@H](O)[C@@H](C)[C@@H](O)[C@@H](C)[C@H](OC(C)=O)[C@@H]1C | MIC | Mycobacterium avium intracellulare |  |  | 92 |  | 0.25 µg/mL |
| O=C(NNC(=O)c1ccncc1)Nc1ccc(F)cc1Br | MIC100 | Mycobacterium kansasii | broth dilution | 14 d | My 6509/96 |  | >125 µM |
| CC[C@H]1OC(=O)[C@H](C)[C@@H](O[C@H]2C[C@@](C)(OC)[C@@H](OC(C)=O)[C@H](C)O2)[C@H](C)[C@@H](O[C@@H]2O[C@H](C)C[C@H](N(C)C)[C@H]2OC(=O)NNCc2cccc(OC)c2)C(C)(O)C[C@@H](C)/C(=N\OCCCC2CCCCC2)[C@H](C)[C@@H](O)[C@]1(C)O | MIC | Mycobacterium avium complex |  |  | 20096 (clarithromycin-resistant) |  | 0.78 µg/mL |
| CCc1nc2ccc(Cl)cn2c1C(=O)NCc1ccc(C2CCN(c3ccc(OCC(C)C)cn3)CC2)c(F)c1.Cl | inhibition | Mycobacterium avium | fluorescence |  |  | 0.036 µM | 85% |
| NNC(=O)c1ccncc1 | MIC100 | Mycobacterium kansasii | broth dilution | 7 d | My 235/80 |  | >250 µM |
| Cc1nc2cc(Cl)ccn2c1C(=O)NCc1ccc(N2CCN(c3ccc(OC(F)(F)F)cc3)[C@@H](C)C2)c(F)c1.Cl | inhibition | Mycobacterium avium | fluorescence |  |  | 0.11 µM | 85% |
| COc1ccc(NC(=O)NNC(=O)c2ccncc2)cc1 | MIC100 | Mycobacterium kansasii | broth dilution | 14 d | My 235/80 |  | >125 µM |

The last 2 rows once more:

smiles | read-out | agent | method | conditions | strain or isolate | dose | value
Cc1nc2cc(Cl)ccn2c1C(=O)NCc1ccc(N2CCN(c3ccc(OC(F)(F)F)cc3)[C@@H](C)C2)c(F)c1.Cl | inhibition | Mycobacterium avium | fluorescence |  |  | 0.11 µM | 85%
COc1ccc(NC(=O)NNC(=O)c2ccncc2)cc1 | MIC100 | Mycobacterium kansasii | broth dilution | 14 d | My 235/80 |  | >125 µM